Anti-infective test results gathered from many reports (values: NIAID ChemDB through PubChem).

Shared fields: growth or infection tests; species: Candida albicans

An empty or dashed field is not shown. Rows are shuffled and stem from different studies. ECn: concentration that inhibits the pathogen or its effect by n%. A number after MIC or MFC names an inhibition level or a share of isolates.

compound,endpoint,strain or isolate,mutations,read by,setting,value
NC(=O)c1c(F)cccc1SSc1cccc(F)c1C(N)=O,MIC,ATCC 2091,,,,5 µg/mL
CCN1c2ccccc2N(CCc2ccccc2)C1C(=S)S,MIC,,,,,400 µg/mL
COc1cc(O)c2c(c1)C(=O)c1c(cc3c(c1O)-c1c(cc(C)c(C(=O)NC(CO)C(=O)O)c1O)[C@H](OC1OC(C)C(N(C)C)C(OC4OCC(O)C(O)C4O)C1O)[C@H]3O)C2=O,MIC,A9540,,,,6.3 µg/mL
Oc1cccc2cc(Cl)cnc12,MIC,ATCC 60913,,,48 h,50 µg/mL
CC(C)(C)c1ccc(C[N+]2=C(c3ccc(F)cc3F)c3cc4c(cc3CC2)OCO4)cc1.[Br-],MIC80,Clinical isolate,Fluconazole-resistant,broth dilution,,64 µg/mL
CCn1c(=[Se])n(CCc2ccccc2)c2ccccc21,MIC,,,,,800 µg/mL
CCCCNC(=O)c1cccc(C(F)(F)F)c1SSc1c(C(=O)NCCCC)cccc1C(F)(F)F,MIC,ATCC 2091,,,,30 µg/mL
COc1cc(Cc2cnc(N)nc2N)cc(OC)c1OCCCNc1ccc(S(=O)(=O)c2ccc(N)cc2)cc1,MIC,YEM14 (WT),,,,>64 µg/mL
CCC(C)CC(C)CCCCCCCCC(=O)N[C@H]1C[C@@H](O)[C@H](NCCN)NC(=O)[C@@H]2[C@@H](O)CCN2C(=O)[C@H]([C@H](O)CCN)NC(=O)[C@H]([C@H](O)[C@@H](O)c2ccc(O)cc2)NC(=O)[C@@H]2C[C@@H](O)CN2C(=O)[C@H]([C@@H](C)O)NC1=O,MIC,MY2301,,,,0.5 µg/mL
O=C(O)c1ccccc1,EC50,PYCC 3436,,,,0.1 µM
CCCCNC(=O)c1c(F)cccc1SSc1cccc(F)c1C(=O)NCCCC,MIC,ATCC 2091,,,,5 µg/mL
c1ccc(CCn2cnc3ccccc32)cc1,MIC,,,,,400 µg/mL
CC(=O)N[C@H]1[C@@H](O[C@@H]2O[C@H](C[C@@H](O)[C@H]3O[C@@H](n4ccc(=O)[nH]c4=O)[C@H](O)[C@@H]3O)[C@H](O)[C@H](O)[C@H]2NC(=O)/C=C/CC(C)C)O[C@H](CO)[C@@H](O)[C@@H]1O,EC50,MY1055,,,,>20 µg/mL
Clc1ccc(CSC(Cn2ccnc2)c2ccc(Cl)cc2Cl)cc1,MIC90,106 isolates,,,,1 µg/mL
CCCCNC(=O)c1ccc(F)cc1SSc1cc(F)ccc1C(=O)NCCCC,MIC,ATCC 2091,,,,7.5 µg/mL
Cc1ccc(C(=O)NCCc2ccc3c(c2)OCO3)cc1,MIC80,Clinical isolate,Fluconazole-resistant,broth dilution,,>64 µg/mL
Clc1ccc(COC(Cn2ccnc2)c2ccc(Cl)cc2Cl)c(Cl)c1,MIC50,106 isolates,,,,2 µg/mL
COc1cc(OC)cc(N2C3CCC2CC(c2cnc(N)nc2N)C3)c1,MIC,YEM15 (CDR1CDR2UP),,,,>64 µg/mL
O=C(/C=C/c1ccccc1)NCCc1ccc2c(c1)OCO2,MIC80,Clinical isolate,Fluconazole-resistant,broth dilution,,>64 µg/mL
C[C@@H](c1nc(-c2ccc(C#N)cc2)cs1)[C@](O)(Cn1cnnc1)c1ccc(F)cc1F,MIC,A14060,,,,0.06 µg/mL
O=c1[nH]sc2c(C(F)(F)F)cccc12,MIC,ATCC 2091,,,,20 µg/mL
Cn1c(=[Se])n(CCc2ccccc2)c2ccccc21,MIC,,,,,800 µg/mL
COc1cc(O)c2c(c1)C(=O)c1c(cc3c(c1O)-c1c(cc(C)c(C(=O)N[C@H](CO)C(=O)O)c1O)[C@H](O)[C@H]3O)C2=O,MIC,A9540,,,,>100 µg/mL
CC(C)(C)c1ccc(C[N+]2=C(c3ccco3)c3cc4c(cc3CC2)OCO4)cc1.[Br-],MIC80,Clinical isolate,Fluconazole-resistant,broth dilution,,>64 µg/mL
CN[C@@H]1[C@H](O)[C@@H](O)[C@H](O[C@H]2c3cc(C)c(C(=O)N[C@H](C)C(=O)OC)c(O)c3-c3c(cc4c(c3O)C(=O)c3cc(OC)cc(O)c3C4=O)[C@@H]2O)O[C@@H]1C,MIC,A9540,,,,>100 µg/mL
Clc1ccc(COC(Cn2ccnc2)c2ccc(Cl)cc2Cl)cc1,MIC50,106 isolates,,,,4 µg/mL
Oc1c(Cl)ccc2cccnc12,MIC,ATCC 60913,,,24 h,12 µg/mL
CC(C)[C@@H](C)/C=C/[C@@H](C)[C@H]1CCC2=C3[C@@H](O)C4OC45C[C@@H](OC(=O)[C@@H](N)[C@@H](OS(=O)(=O)O)C(C)C)CC[C@]5(C)[C@H]3CC[C@@]21C(=O)O,MIC,MY2301,,,,2 µg/mL
Oc1cc(Cl)cc2cc(Cl)cnc12,MIC,ATCC 60913,,,48 h,12 µg/mL
CCN1c2ccccc2N(CCc2ccccc2)C1CC#N,MIC,,,,,400 µg/mL
CC(=O)N1CCN(c2ccc(OC[C@H]3CO[C@](Cn4ccnc4)(c4ccc(Cl)cc4Cl)O3)cc2)CC1,MIC90,106 isolates,,,,64 µg/mL
C[C@@H]1CC[C@@]2(OC1)O[C@H]1[C@@H](O)[C@H]3[C@@H]4CC[C@H]5C[C@@H](O[C@@H]6O[C@H](CO)[C@H](O[C@@H]7O[C@H](CO)[C@@H](O)[C@H](O[C@@H]8OC[C@@H](O)[C@H](O)[C@H]8O)[C@H]7O[C@@H]7O[C@H](CO)[C@H](O)[C@H](O[C@@H]8O[C@H](CO)[C@@H](O)[C@H](O)[C@H]8O)[C@H]7O)[C@H](O)[C@H]6O)[C@H](O)C[C@]5(C)[C@H]4CC[C@]3(C)[C@H]1[C@@H]2C,MIC,MY1055,,,,2.5 µg/mL
O=C(O)c1ccccc1O,EC50,ATCC 10231,,broth dilution / turbidity,,0.76 µM
CC(=O)O[C@@H]1C[C@@]23C(=O)OC[C@](C)([C@@H]2CC[C@H]2C3=CC[C@@]3(C)[C@H](C(=O)O)[C@@](C)([C@H](C)C(C)C)CC[C@]23C)[C@H]1O[C@@H]1O[C@H](CO)[C@@H](O)[C@H](O)[C@H]1O,MIC,MY2301,,,,0.5 µg/mL
Cc1ccc(C(C)C)c(O)c1,EC50,PYCC 3436,,broth dilution / turbidity,,0.19 µM

4 of the rows above, restated:

compound	endpoint	strain or isolate	mutations	read by	setting	value
CC(=O)O[C@@H]1C[C@@]23C(=O)OC[C@](C)([C@@H]2CC[C@H]2C3=CC[C@@]3(C)[C@H](C(=O)O)[C@@](C)([C@H](C)C(C)C)CC[C@]23C)[C@H]1O[C@@H]1O[C@H](CO)[C@@H](O)[C@H](O)[C@H]1O	MIC	MY2301				0.5 µg/mL
Cc1ccc(C(C)C)c(O)c1	EC50	PYCC 3436		broth dilution / turbidity		0.19 µM
c1ccc(CCn2cnc3ccccc32)cc1	MIC					400 µg/mL
Oc1cccc2cc(Cl)cnc12	MIC	ATCC 60913			48 h	50 µg/mL